Measured values: ChEMBL document CHEMBL5034007, “Discovery of Methylene Thioacetal-Incorporated α-RgIA Analogues as Potent and Stable Antagonists of the Human α9α10 Nicotinic Acetylcholine Receptor for the Treatment of Neuropathic Pain” (2021)

Amino acid sequences for entries named in this document (tags omitted). A change or cut given only in a name is not applied to a line headed by its entry.
UniProt P24557: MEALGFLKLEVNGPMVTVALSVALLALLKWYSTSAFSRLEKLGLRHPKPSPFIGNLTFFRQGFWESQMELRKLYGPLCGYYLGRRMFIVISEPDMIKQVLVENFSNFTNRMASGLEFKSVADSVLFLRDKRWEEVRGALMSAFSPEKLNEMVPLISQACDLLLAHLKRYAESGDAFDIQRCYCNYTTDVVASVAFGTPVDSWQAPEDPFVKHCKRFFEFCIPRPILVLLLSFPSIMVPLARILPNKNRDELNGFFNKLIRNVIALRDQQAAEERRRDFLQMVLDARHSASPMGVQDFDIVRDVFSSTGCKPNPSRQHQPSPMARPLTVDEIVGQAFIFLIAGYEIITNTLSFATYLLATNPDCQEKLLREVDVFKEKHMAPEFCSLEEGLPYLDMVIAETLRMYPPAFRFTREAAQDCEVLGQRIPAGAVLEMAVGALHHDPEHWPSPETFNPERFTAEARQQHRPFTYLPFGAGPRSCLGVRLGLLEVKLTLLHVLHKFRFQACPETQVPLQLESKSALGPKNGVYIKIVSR
UniProt P22303: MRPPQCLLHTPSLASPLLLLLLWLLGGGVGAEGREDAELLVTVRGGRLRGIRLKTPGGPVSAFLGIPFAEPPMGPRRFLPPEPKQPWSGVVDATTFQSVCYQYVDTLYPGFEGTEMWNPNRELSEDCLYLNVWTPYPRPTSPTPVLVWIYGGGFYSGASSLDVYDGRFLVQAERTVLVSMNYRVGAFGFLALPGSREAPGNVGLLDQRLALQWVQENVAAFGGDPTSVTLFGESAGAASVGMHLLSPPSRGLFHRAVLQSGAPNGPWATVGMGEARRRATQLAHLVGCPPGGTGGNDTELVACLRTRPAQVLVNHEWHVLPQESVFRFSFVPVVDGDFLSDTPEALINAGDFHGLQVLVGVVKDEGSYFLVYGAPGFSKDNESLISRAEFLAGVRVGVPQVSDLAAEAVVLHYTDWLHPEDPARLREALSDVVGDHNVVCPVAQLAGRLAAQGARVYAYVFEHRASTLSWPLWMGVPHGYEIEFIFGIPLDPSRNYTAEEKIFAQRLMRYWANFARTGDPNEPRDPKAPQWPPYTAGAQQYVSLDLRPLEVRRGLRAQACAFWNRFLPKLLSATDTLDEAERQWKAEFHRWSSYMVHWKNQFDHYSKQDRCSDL
UniProt Q13255: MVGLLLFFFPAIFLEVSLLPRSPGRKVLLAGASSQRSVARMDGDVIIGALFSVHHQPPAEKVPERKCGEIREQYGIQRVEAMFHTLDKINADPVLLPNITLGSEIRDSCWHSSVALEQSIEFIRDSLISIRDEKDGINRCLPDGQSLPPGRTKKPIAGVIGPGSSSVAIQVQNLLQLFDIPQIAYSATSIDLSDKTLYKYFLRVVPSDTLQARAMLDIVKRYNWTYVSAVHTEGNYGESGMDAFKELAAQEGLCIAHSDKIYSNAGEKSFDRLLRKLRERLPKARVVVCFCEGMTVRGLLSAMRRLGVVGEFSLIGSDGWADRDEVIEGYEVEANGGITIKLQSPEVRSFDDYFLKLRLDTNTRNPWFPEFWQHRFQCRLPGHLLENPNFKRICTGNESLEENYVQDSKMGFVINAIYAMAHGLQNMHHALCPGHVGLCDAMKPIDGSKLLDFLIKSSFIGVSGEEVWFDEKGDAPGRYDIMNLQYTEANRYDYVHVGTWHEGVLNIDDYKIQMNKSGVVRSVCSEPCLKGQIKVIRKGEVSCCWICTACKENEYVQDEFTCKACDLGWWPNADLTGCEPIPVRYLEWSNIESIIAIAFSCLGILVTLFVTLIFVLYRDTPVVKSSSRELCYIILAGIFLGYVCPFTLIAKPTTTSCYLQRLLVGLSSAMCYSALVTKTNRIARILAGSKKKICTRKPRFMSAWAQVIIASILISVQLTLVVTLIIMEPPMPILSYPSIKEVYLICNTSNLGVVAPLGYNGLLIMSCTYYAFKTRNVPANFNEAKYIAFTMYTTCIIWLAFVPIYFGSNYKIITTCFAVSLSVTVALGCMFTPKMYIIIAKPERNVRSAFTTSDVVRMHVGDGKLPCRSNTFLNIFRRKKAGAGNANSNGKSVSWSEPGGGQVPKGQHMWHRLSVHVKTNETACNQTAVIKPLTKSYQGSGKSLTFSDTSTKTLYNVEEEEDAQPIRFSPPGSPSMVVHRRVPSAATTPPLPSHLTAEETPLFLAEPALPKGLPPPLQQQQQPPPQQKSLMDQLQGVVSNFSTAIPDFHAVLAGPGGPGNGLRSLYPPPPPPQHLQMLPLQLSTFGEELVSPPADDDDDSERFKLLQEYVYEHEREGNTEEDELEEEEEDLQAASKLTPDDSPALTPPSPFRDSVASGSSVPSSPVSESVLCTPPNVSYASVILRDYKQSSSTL
UniProt P30559: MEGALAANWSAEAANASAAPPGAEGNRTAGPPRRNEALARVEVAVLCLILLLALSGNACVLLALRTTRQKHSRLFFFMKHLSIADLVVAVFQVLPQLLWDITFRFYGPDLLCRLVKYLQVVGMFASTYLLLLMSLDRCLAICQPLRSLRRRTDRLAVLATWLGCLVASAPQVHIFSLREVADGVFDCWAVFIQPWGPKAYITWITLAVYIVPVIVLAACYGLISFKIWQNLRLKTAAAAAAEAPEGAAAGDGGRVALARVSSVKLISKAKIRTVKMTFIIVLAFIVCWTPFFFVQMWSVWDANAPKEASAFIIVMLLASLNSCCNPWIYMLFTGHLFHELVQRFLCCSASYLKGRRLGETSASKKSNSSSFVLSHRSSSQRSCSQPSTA
UniProt P25105: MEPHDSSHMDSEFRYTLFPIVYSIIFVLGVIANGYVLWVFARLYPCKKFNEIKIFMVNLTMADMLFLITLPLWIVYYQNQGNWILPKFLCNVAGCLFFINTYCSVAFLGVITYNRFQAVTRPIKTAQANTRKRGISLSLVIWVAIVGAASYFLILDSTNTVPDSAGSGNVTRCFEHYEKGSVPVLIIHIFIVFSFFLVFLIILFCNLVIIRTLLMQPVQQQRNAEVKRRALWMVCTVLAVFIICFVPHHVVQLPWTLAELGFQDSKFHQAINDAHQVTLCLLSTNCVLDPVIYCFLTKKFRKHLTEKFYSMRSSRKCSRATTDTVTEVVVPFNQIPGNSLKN
UniProt P48548: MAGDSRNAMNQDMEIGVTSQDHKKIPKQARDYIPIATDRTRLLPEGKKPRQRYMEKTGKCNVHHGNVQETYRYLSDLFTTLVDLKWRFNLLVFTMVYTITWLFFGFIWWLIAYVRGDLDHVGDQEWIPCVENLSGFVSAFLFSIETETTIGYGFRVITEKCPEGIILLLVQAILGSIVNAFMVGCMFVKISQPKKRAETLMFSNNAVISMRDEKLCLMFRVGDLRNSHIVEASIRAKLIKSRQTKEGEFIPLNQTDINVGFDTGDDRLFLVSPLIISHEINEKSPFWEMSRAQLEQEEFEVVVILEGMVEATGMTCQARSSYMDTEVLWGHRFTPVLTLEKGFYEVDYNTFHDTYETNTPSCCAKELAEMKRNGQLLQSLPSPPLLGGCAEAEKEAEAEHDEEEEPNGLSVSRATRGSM
UniProt P41587: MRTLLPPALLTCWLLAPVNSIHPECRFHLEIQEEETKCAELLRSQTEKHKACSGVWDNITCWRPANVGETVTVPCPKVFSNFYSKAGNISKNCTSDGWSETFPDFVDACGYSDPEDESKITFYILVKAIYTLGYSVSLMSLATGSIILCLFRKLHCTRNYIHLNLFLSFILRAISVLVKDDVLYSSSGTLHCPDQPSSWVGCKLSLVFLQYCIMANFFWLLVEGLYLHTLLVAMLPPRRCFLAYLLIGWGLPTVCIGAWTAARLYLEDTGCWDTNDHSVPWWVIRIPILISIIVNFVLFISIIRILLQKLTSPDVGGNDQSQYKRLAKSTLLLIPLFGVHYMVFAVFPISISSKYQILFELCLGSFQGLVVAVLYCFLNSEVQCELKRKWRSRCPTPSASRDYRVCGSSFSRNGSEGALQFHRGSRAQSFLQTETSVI
UniProt P10275: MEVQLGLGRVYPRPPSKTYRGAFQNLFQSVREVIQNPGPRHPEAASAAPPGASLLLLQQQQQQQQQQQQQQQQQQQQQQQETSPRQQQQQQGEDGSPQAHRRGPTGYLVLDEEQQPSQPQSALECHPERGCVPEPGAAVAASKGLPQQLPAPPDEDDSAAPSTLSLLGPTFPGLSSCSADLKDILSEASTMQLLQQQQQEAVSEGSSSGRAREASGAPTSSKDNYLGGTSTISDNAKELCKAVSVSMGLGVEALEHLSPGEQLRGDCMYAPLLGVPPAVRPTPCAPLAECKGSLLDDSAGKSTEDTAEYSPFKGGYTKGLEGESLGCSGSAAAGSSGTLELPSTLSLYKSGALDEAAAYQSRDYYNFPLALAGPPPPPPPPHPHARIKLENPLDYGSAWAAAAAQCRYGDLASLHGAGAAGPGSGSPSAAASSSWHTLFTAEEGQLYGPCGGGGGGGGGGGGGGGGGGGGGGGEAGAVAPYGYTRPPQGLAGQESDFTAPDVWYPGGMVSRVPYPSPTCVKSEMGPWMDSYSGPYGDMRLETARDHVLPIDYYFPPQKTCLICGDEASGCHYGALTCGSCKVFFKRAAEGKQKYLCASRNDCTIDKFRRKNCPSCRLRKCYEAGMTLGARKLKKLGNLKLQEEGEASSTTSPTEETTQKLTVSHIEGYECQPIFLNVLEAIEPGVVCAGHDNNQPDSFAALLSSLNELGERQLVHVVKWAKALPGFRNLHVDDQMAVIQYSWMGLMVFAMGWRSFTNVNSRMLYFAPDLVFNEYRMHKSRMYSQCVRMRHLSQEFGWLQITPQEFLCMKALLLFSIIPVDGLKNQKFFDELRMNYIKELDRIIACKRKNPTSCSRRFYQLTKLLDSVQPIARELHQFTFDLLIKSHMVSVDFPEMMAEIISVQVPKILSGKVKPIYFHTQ
UniProt P29371, whole entry, looked up: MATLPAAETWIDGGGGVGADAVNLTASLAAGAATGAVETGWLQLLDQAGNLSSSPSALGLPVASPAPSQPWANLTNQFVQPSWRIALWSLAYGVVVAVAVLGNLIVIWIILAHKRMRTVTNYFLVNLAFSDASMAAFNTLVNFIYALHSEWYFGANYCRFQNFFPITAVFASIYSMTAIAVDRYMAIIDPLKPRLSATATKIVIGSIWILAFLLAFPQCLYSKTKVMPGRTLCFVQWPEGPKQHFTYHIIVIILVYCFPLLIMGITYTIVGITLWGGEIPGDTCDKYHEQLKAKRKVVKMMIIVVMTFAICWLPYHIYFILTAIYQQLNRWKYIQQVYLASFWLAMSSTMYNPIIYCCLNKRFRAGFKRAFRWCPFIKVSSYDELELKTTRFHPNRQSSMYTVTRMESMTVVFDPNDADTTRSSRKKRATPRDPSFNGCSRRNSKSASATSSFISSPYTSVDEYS
UniProt P30542, whole entry, looked up: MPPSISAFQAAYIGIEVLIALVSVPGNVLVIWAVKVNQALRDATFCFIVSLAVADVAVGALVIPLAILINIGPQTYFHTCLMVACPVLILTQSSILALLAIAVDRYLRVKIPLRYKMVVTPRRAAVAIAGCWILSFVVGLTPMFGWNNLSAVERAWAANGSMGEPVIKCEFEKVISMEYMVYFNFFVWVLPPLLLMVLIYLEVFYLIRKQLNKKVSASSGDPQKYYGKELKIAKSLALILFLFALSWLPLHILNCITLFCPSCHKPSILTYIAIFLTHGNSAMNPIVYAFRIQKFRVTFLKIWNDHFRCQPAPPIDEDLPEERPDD
UniProt P25103, whole entry, looked up: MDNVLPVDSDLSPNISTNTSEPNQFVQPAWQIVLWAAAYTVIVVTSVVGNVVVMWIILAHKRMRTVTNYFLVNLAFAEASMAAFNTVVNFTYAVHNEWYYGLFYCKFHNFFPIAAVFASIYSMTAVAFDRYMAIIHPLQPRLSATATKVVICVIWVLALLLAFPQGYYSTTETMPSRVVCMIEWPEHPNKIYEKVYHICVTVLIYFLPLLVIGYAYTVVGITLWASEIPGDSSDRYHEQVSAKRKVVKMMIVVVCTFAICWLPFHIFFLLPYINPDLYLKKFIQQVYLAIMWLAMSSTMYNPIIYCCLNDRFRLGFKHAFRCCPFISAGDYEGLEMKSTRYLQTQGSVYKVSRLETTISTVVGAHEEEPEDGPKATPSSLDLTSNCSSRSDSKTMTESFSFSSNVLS
UniProt P24530: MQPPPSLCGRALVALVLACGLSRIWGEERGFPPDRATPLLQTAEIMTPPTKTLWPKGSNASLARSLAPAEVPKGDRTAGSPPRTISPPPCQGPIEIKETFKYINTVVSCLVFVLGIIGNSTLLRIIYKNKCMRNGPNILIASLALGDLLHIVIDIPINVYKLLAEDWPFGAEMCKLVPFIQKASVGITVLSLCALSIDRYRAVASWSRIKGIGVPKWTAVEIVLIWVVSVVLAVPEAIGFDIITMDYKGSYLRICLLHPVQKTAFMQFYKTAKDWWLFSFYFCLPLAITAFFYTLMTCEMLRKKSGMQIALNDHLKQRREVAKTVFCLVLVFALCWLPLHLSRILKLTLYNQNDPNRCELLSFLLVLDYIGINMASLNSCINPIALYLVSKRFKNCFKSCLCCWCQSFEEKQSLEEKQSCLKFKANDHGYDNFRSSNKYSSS

How the values were obtained:
[1] = target: Nitric oxide synthase 1 (Homo sapiens) (UniProt P29475); assay: Inhibition of NOS (unknown origin); conditions: concentration not given here
[2] = target: Thromboxane-A synthase (Homo sapiens) (UniProt P24557); assay: Inhibition of TXA2 synthetase (unknown origin); conditions: concentration not given here
[3] = target: Acetylcholinesterase (Homo sapiens) (UniProt P22303); assay: Inhibition of acetylcholinesterase (unknown origin); conditions: concentration not given here
[4] = target: Choline O-acetyltransferase (Homo sapiens) (UniProt P28329); assay: Inhibition of choline acetyl transferase (unknown origin); conditions: concentration not given here
[5] = target: Metabotropic glutamate receptor 1 (Homo sapiens) (UniProt Q13255); assay: Displacement of [3H]quisqualate from mGluR1 (unknown origin) at 10 uM relative to control
[6] = target: Metabotropic glutamate receptor 5 (Homo sapiens) (UniProt P41594); assay: Displacement of [3H]quisqualate from mGluR5 (unknown origin) at 10 uM relative to control
[7] = target: Oxytocin receptor (Homo sapiens) (UniProt P30559); assay: Displacement of [3H]-oxytocin from Oxytocin receptor (unknown origin) at 10 uM relative to control
[8] = species on record: Homo sapiens; assay: Displacement of [3H]-Strychnine from glycine receptor (unknown origin) at 10 uM relative to control
[9] = species on record: Rattus norvegicus; assay: Displacement of [3H]kainic acid from rat kainate receptor at 10 uM by radioligand binding assay relative to control
[10] = target: Platelet-activating factor receptor (Homo sapiens) (UniProt P25105); assay: Displacement of [3H]C18-PAF from PAFR (unknown origin) at 10 uM by scintillation counting analysis relative to control
[11] = target: Neuronal acetylcholine receptor subunit alpha-7 (Homo sapiens) (UniProt P36544); assay: Displacement of [125I]alpha-Btx from nicotinic acetylcholine receptor alpha7 (unknown origin) at 10 uM relative to control; conditions: filed as antagonist
[12] = target: G protein-activated inward rectifier potassium channel 4 (Rattus norvegicus) (UniProt P48548); assay: Displacement of [3H]glibenclamide from rat KATP at 10 uM after 60 mins by scintillation counting analysis relative to control
[13] = target: Bone morphogenetic protein 1 (Homo sapiens) (UniProt P13497); assay: Displacement of [3H]TCP from PCP (unknown origin) at 10 uM after 60 mins by scintillation counting method relative to control
[14] = target: Vasoactive intestinal polypeptide receptor 2 (Homo sapiens) (UniProt P41587); assay: Displacement of [125I]VIP from VPAC2 receptor (unknown origin) at 10 uM by scintillation counting analysis relative to control
[15] = target: Kappa-type opioid receptor (Homo sapiens) (UniProt P41145); assay: Displacement of [3H]U69593 from human kappa receptor at 10 uM after 60 mins by scintillation counting analysis relative to control
[16] = target: Alpha-2A adrenergic receptor (Homo sapiens) (UniProt P08913); assay: Displacement of [3H]-RX821002 from adrenergic alpha 2 receptor (unknown origin) at 10 uM by scintillation analysis relative to control
[17] = species on record: Rattus norvegicus; assay: Displacement of [125I]apamin from rat brain SkCa channel at 10 uM after 60 mins by scintillation counting analysis relative to control; conditions: filed as antagonist
[18] = species on record: Rattus norvegicus; assay: Displacement of [3H]-QNB from rat brain muscarinic receptor at 10 uM after 120 mins by scintillation counting method relative to control
[19] = target: Vasopressin V1a receptor (Homo sapiens) (UniProt P37288); assay: Displacement of [3H]AVP from human recombinant V1a receptor at 10 uM after 60 mins by scintillation counting analysis relative to control
[20] = target: Cysteinyl leukotriene receptor 1 (Homo sapiens) (UniProt Q9Y271); assay: Displacement of [3H]LTD4 from recombinant human CysLT1 receptor at 10 uM after 60 mins by scintillation counting method relative to control
[21] = target: Mu-type opioid receptor (Homo sapiens) (UniProt P35372); assay: Displacement of [3H]DAMGO from human recombinant mu receptor at 10 uM after 120 mins by scintillation counting analysis relative to control
[22] = target: Muscarinic acetylcholine receptor M2 (Homo sapiens) (UniProt P08172); assay: Displacement of [3H]AF-DX 384 from human recombinant M2 receptor at 10 uM after 60 mins by scintillation counting analysis relative to control
[23] = target: Androgen receptor (Homo sapiens) (UniProt P10275); assay: Displacement of [3H]methyltrienolone from human androgen receptor at 10 uM after 1440 mins by scintillation counting method relative to control
[24] = target: Neuromedin-K receptor (Homo sapiens) (UniProt P29371); assay: Displacement of [3H]SR 142801 from human recombinant NK3 receptor at 10 uM after 120 mins by scintillation counting analysis relative to control
[25] = target: Beta-1 adrenergic receptor (Homo sapiens) (UniProt P08588); assay: Displacement of [3H](-)CGP 12177 from human adrenergic beta1 receptor at 10 uM after 60 mins by scintillation counting analysis relative to control
[26] = target: Adenosine receptor A1 (Homo sapiens) (UniProt P30542); assay: Displacement of [3H]-DPCPX from human recombinant adenosine A1 receptor at 10 uM after 60 mins by scintillation counting analysis relative to control
[27] = species on record: Rattus norvegicus; assay: Displacement of [3H]batrachotoxinin from rat brain sodium channel site 2 at 10 uM after 60 mins by scintillation counting analysis relative to control
[28] = target: Substance-P receptor (Homo sapiens) (UniProt P25103); assay: Displacement of [125I]-Substance P LYS3 from human recombinant NK1 receptor at 10 uM after 30 mins by scintillation counting analysis relative to control
[29] = target: Endothelin receptor type B (Homo sapiens) (UniProt P24530); assay: Displacement of [125I]endothelin-1 from human recombinant endothelin ETB receptor at 10 uM after 120 mins by scintillation counting analysis relative to control

Question: Which results are given for `C[C@H](O)[C@H]1NC(=O)[C@@H]2NC(=O)[C@@H](NC(=O)CN)CSSC[C@H](NC(=O)[C@H](CCCNC(=N)N)NC(=O)[C@@H]3CCCN3C(=O)[C@H](CC(O)O)NC1=O)C(=O)N[C@@H](CCCNC(=N)N)C(=O)N[C@@H](Cc1ccc(O)c(I)c1)C(=O)N[C@@H](CCC(N)=O)C(=O)N[C@H](C(=O)N[C@H](CC(=O)N[C@@H](CCCNC(=N)N)C(=O)O)Cc1ccc(O)cc1)CSCS2`?
Answer: inhibition [1]: 12%; inhibition [2]: 16.9%; inhibition [3]: 8.9%; inhibition [4]: 2.2%; Activity [5]: -36.2%; Activity [6]: -25.4%; Activity [7]: -12%; Activity [8]: 22.1%; Activity [9]: 22.4%; Activity [10]: 3.8%; Activity [11]: 41.1%; Activity [12]: -5%; Activity [13]: -9.5%; Activity [14]: 0.2%; Activity [15]: 0.6%; Activity [16]: -10%; Activity [17]: 42.4%; Activity [18]: 1.5%; Activity [19]: 5.3%; Activity [20]: 2.3%; Activity [21]: -3.9%; Activity [22]: -8.5%; Activity [23]: 0%; Activity [24]: -9.1%; Activity [25]: 18.3%; Activity [26]: 3.3%; Activity [27]: -9.3%; Activity [28]: -3.5%; Activity [29]: -35.6%
